Compound potency records, mixed from different reports. Data source: NIAID ChemDB in PubChem.

All rows: tests in culture

Rows are shuffled and stem from different studies. Two numbers with a dash give a range or band. A number after MIC or MFC names an inhibition level or a share of isolates. Blank or dashed fields: not listed here. Inhibition is in % at the dose shown (toxicity tests: loss of growth or viability).

smiles,tested at,read by,conditions,agent,read-out,strain or isolate,value
C[C@@H](O)[C@H]1C(=O)N2C(C(=O)O)=C(SCCN=CN)C[C@H]12,-,-,-,Mycobacterium fortuitum,MIC,914-8,1.56 µg/mL
Cc1nc2ccc(F)cn2c1C(=O)NCc1ccc(N2CCC(c3ccc(OC(F)(F)F)cc3)CC2)c(F)c1.Cl,0.079 µM,fluorescence,-,Mycobacterium avium,inhibition,-,85%
O=C(NCc1cccs1)c1c(Cl)nc2ccccn12,-,fluorescence,-,Mycobacterium ulcerans,MIC50,-,0.1–1 µg/mL
CC[C@H]1OC(=O)[C@H](C)[C@@H](OC2C[C@@](C)(OC)[C@@H](O)[C@H](C)O2)[C@H](C)[C@@H](O[C@@H]2O[C@H](C)C[C@H](N(C)C)[C@H]2O)C(C)(O)C[C@@H](C)/C(=N\OCCCC2CCCCC2)[C@H](C)[C@@H](O)[C@]1(C)O,-,-,-,Mycobacterium avium complex,MIC,20092 (clarithromycin-resistant),12.5 µg/mL
O=c1oc2ccc(Br)cc2c(=S)n1-c1cccc(F)c1,-,-,21 d,Mycobacterium kansasii,MIC,My 235/80,8 µM
CC(C)N=C(N)/N=C(\N)NOCCCOc1cc(Cl)c(Cl)cc1Cl,-,-,-,Mycobacterium avium complex,MIC,ATCC35801,32 µg/mL
CN(C)c1ccc(CNC(=O)c2c(Cl)nc3ccccn23)cc1,-,fluorescence,-,Mycobacterium ulcerans,MIC50,-,0.1–1 µg/mL
Fc1cccc(-n2c(=S)oc3ccc(Cl)cc3c2=S)c1,-,-,21 d,Mycobacterium kansasii,MIC,My 235/80,16 µM
Cc1ccn2c(C(=O)NCc3ccc(N4CCN(C5CN(CC(F)(F)F)C5)[C@@H](C)C4)c(F)c3)c(C)nc2c1,0.96 µM,fluorescence,-,Mycobacterium avium,inhibition,-,85%
O=C(NNC(=O)c1ccncc1)Nc1ccc(Br)c(C(F)(F)F)c1,-,broth dilution,7 d,Mycobacterium kansasii,MIC100,My 6509/96,125 µM
CCCCCCCCCCCCCCCCCCCC(=O)NC(CCC(=O)O)(CCC(=O)O)CCC(=O)O,-,-,-,Mycobacterium marinum,MIC,ATCC 927,27 µg/mL
Fc1ccc2oc(=S)n(-c3cccc(Cl)c3)c(=S)c2c1,-,-,14 d,Mycobacterium kansasii,MIC,My 235/80,4 µM
CC[C@H]1OC(=O)[C@H](C)[C@@H](O[C@H]2C[C@@](C)(OC)[C@@H](OC(C)=O)[C@H](C)O2)[C@H](C)[C@@H](O[C@@H]2O[C@H](C)C[C@H](N(C)C)[C@H]2O)C(C)(O)C[C@@H](C)/C(=N\OCCCC2CCCCC2)[C@H](C)[C@@H](O)[C@]1(C)O,-,-,-,Mycobacterium avium complex,MIC,20092 (clarithromycin-resistant),3.13 µg/mL
NCC[C@H](O)C(=O)N[C@@H]1C[C@H](N)[C@@H](O[C@H]2O[C@H](CN)[C@@H](O)[C@H](O)[C@H]2O)[C@H](O)[C@H]1O[C@H]1O[C@H](CO)[C@@H](O)[C@H](N)[C@H]1O,-,-,-,Mycobacterium chelonae,MIC,EO-P-1,2.3 µg/mL
CC(C)(C)c1ccc(NC(=O)NNC(=O)c2ccncc2)cc1,-,broth dilution,14 d,Mycobacterium kansasii,MIC100,My 235/80,62.5 µM
CCCCCCCCCCCCC(=O)O[C@H]1[C@H](C)[C@@H](O[C@@H]2O[C@H](C)C[C@H](N(C)C)[C@H]2O)C(C)(O)C[C@@H](C)/C(=N\OCCCOc2ccccc2)[C@H](C)[C@@H](O)[C@](C)(O)[C@@H](CC)OC(=O)[C@@H]1C,-,-,-,Mycobacterium avium complex,MIC,20039 (clarithromycin-susceptible),>50 µg/mL
CO[C@@]1(NC(=O)CCCC(N)C(=O)O)C(=O)N2C(C(=O)O)=C(COC(N)=O)CSC21,-,-,-,Mycobacterium fortuitum,MIC,1045,>100 µg/mL
Cc1ccn2c(C(=O)NCc3ccc(C4CCN(c5cccc(OC(F)(F)F)c5)CC4)c(F)c3)c(C)nc2c1,0.13 µM,fluorescence,-,Mycobacterium avium,inhibition,-,85%
CO[C@H]1/C=C/O[C@@]2(C)Oc3c(C)c(O)c4c(O)c(c5c(c4c3C2=O)NC2(CCN(CC(C)C)CC2)N=5)=NC(=O)/C(C)=C\C=C\[C@H](C)[C@H](O)[C@@H](C)[C@@H](O)[C@@H](C)[C@H](OC(C)=O)[C@@H]1C,-,-,-,Mycobacterium avium intracellulare,MIC,74,0.125 µg/mL
O=c1oc2ccc(Br)cc2c(=S)n1-c1cccc(Cl)c1,-,-,14 d,Mycobacterium kansasii,MIC,My 235/80,2 µM
Cc1nc2cnccn2c1C(=O)NCc1ccc(N2CCN(c3ccc(OC(F)(F)F)cc3)CC2)c(F)c1,0.66 µM,fluorescence,-,Mycobacterium avium,inhibition,-,85%
Fc1ccc2oc(=S)n(-c3ccc(C(F)(F)F)cc3)c(=S)c2c1,-,-,14 d,Mycobacterium kansasii,MIC,6509/96,8 µM
CCCCCCCCCCCN(CCCCCCCCCCC)C(=O)NC(CCC(=O)O)(CCC(=O)O)CCC(=O)O,-,-,-,Mycobacterium marinum,MIC,ATCC 927,72 µg/mL
CNC(=O)c1c(-c2ccc(C)cc2)nc2ccccn12,-,fluorescence,-,Mycobacterium ulcerans,MIC50,-,>10 µg/mL
O=c1oc2ccc(Br)cc2c(=S)n1-c1ccc(F)cc1,-,-,14 d,Mycobacterium kansasii,MIC,6509/96,8 µM
Cc1ccn2c(C(=O)NCC3CCCO3)c(C)nc2c1,-,fluorescence,-,Mycobacterium ulcerans,MIC50,-,>10 µg/mL
CC(C)c1ccc(NC(=O)NNC(=O)c2ccncc2)cc1,-,broth dilution,7 d,Mycobacterium kansasii,MIC100,My 235/80,16 µM
CCc1nc2ccc(Cl)cn2c1C(=O)NCc1ccc(-c2ccc(OC(F)(F)F)cc2)c(F)c1,0.056 µM,fluorescence,-,Mycobacterium avium,inhibition,-,85%
CO[C@@]1(NC(=O)CSCC#N)C(=O)N2C(C(=O)O)=C(CSc3nnnn3C)CS[C@@H]21,-,-,-,Mycobacterium fortuitum,MIC,1263,12.5 µg/mL
Cc1ccc(-n2c(=O)oc3ccc(Br)cc3c2=S)cc1,-,-,21 d,Mycobacterium kansasii,MIC,6509/96,4 µM
CCc1nc2ccc(Cl)cn2c1C(=O)NCc1ccc(C2CCN(c3ccc(OCC4CC4)cn3)CC2)c(F)c1.Cl,0.022 µM,fluorescence,-,Mycobacterium avium,inhibition,-,85%
Nc1ccc(S(=O)(=O)c2ccc(N)cc2)cc1,-,-,-,Mycobacterium avium complex,MIC,DW1,32 µg/mL
CO[C@@]1(NC(=O)C(C(=O)O)c2ccc(O)cc2)C(=O)N2C(C(=O)O)=C(CSc3nnnn3C)CO[C@@H]21,-,-,-,Mycobacterium fortuitum,MIC,1263,50 µg/mL
O=c1oc2ccc(F)cc2c(=S)n1-c1ccc(Cl)c(Cl)c1,-,-,14 d,Mycobacterium kansasii,MIC,6509/96,2 µM
CCCCc1ccc(NC(=O)NNC(=O)c2ccncc2)cc1,-,broth dilution,14 d,Mycobacterium avium,MIC100,MY330/88,62.5 µM
CC[C@H]1OC(=O)[C@H](C)[C@@H](OC2C[C@@](C)(OC)[C@@H](OC(=O)CCCc3ccccc3)[C@H](C)O2)[C@H](C)[C@@H](O[C@@H]2O[C@H](C)C[C@H](N(C)C)[C@H]2O)C(C)(O)C[C@@H](C)/C(=N\OCCCOc2ccccc2)[C@H](C)[C@@H](O)[C@]1(C)O,-,-,-,Mycobacterium avium complex,MIC,20092 (clarithromycin-resistant),3.13 µg/mL
CCCCCCCCCCCCCCCCCOC(=O)NC(CCC(=O)O)(CCC(=O)O)CCC(=O)O,-,-,-,Mycobacterium chelonae,MIC,EO-P-1,27 µg/mL
CC[C@H]1OC(=O)[C@H](C)[C@@H](O[C@H]2C[C@@](C)(OC)[C@@H](OC(C)=O)[C@H](C)O2)[C@H](C)[C@@H](O[C@@H]2O[C@H](C)C[C@H](N(C)C)[C@H]2OC(=O)NNCc2cccc(OC)c2)C(C)(O)C[C@@H](C)/C(=N\OCCCC2CCCCC2)[C@H](C)[C@@H](O)[C@]1(C)O,-,-,-,Mycobacterium avium complex,MIC,20039 (clarithromycin-susceptible),0.78 µg/mL
CCCCCCCCCCCCCCCCC(=O)NC(C)(CCC(=O)O)CCC(=O)O,-,-,-,Mycobacterium marinum,MIC,ATCC 927,286 µg/mL
CCCCCCO/N=C1\[C@H](C)CC(C)(O)[C@H](O[C@@H]2O[C@H](C)C[C@H](N(C)C)[C@H]2O)[C@@H](C)[C@H](O[C@H]2C[C@@](C)(OC)[C@@H](OC(C)=O)[C@H](C)O2)[C@@H](C)C(=O)O[C@H](CC)[C@@](C)(O)[C@H](O)[C@H]1C,-,-,-,Mycobacterium avium complex,MIC,20096 (clarithromycin-resistant),3.13 µg/mL
CNC(=O)C1CCC(NC(=O)c2c(Cl)nc3ccccn23)CC1,-,fluorescence,-,Mycobacterium ulcerans,MIC50,-,>10 µg/mL
CC[C@H]1OC(=O)[C@H](C)[C@@H](OC2C[C@@](C)(OC)[C@@H](OC(C)=O)[C@H](C)O2)[C@H](C)[C@@H](O[C@@H]2O[C@H](C)C[C@H](N(C)C)[C@H]2O)C(C)(O)C[C@@H](C)/C(=N\OCCCOc2ccccc2)[C@H](C)[C@@H](O)[C@]1(C)O,-,-,-,Mycobacterium avium complex,MIC,20039 (clarithromycin-susceptible),1.56 µg/mL
CCc1nc2cc(F)ccn2c1C(=O)NCc1ccc(N2CCN(c3ccc(OC(C)C)cc3)[C@@H](C)C2)c(F)c1.Cl,0.0071 µM,fluorescence,-,Mycobacterium avium,inhibition,-,85%
CCCCCCCCCCCCCCCCC(=O)NC(CCC(=O)O)(CCC(=O)O)CCC(=O)O,-,-,-,Mycobacterium chelonae,MIC,EO-P-1,27 µg/mL
CO[C@H]1/C=C/O[C@@]2(C)Oc3c(C)c(O)c4c(=O)c(c5oc6cc(N7CCN(CC(C)C)CC7)cc(=O)c6nc5c4c3=C2O)NC(=O)/C(C)=C\C=C\[C@H](C)[C@H](O)[C@@H](C)[C@@H](O)[C@@H](C)[C@H](OC(C)=O)[C@@H]1C,-,-,-,Mycobacterium ulcerans,MBC,Isolate 8756,0.025 µg/mL
O=C(NNC(=O)c1ccncc1)Nc1c(Cl)cc(Cl)cc1Cl,-,broth dilution,21 d,Mycobacterium kansasii,MIC100,My 6509/96,125 µM
COc1ccc2oc(=S)n(-c3ccc(C)cc3)c(=S)c2c1,-,-,21 d,Mycobacterium kansasii,MIC,My 235/80,16 µM
Cc1ccc2nc(C)c(C(=O)NCc3ccc(N4CCN(c5ccc(OC(F)(F)F)cc5)C(C)(C)C4)c(F)c3)n2c1,0.14 µM,fluorescence,-,Mycobacterium avium,inhibition,-,85%
O=C(NNC(=O)c1ccncc1)Nc1ccc(F)cc1Br,-,broth dilution,7 d,Mycobacterium kansasii,MIC100,My 6509/96,>125 µM
CO[C@@]1(NC(=O)Cc2ccccc2)C(=O)N2C(C(=O)O)=C(COC(C)=O)CSC21,-,-,-,Mycobacterium fortuitum,MIC,1004-8,50 µg/mL
CCCCCCCCN(CCCCCCCC)C(=O)NC(CCC(=O)O)(CCC(=O)O)CCC(=O)O,-,-,-,Mycobacterium abscessus,MIC,AAy-P-1,72 µg/mL

6 of the rows above, restated:

smiles,tested at,read by,conditions,agent,read-out,strain or isolate,value
O=c1oc2ccc(Br)cc2c(=S)n1-c1ccc(F)cc1,-,-,14 d,Mycobacterium kansasii,MIC,6509/96,8 µM
CCc1nc2ccc(Cl)cn2c1C(=O)NCc1ccc(C2CCN(c3ccc(OCC4CC4)cn3)CC2)c(F)c1.Cl,0.022 µM,fluorescence,-,Mycobacterium avium,inhibition,-,85%
CO[C@@]1(NC(=O)Cc2ccccc2)C(=O)N2C(C(=O)O)=C(COC(C)=O)CSC21,-,-,-,Mycobacterium fortuitum,MIC,1004-8,50 µg/mL
CO[C@@]1(NC(=O)CCCC(N)C(=O)O)C(=O)N2C(C(=O)O)=C(COC(N)=O)CSC21,-,-,-,Mycobacterium fortuitum,MIC,1045,>100 µg/mL
O=c1oc2ccc(Br)cc2c(=S)n1-c1cccc(F)c1,-,-,21 d,Mycobacterium kansasii,MIC,My 235/80,8 µM
CC[C@H]1OC(=O)[C@H](C)[C@@H](OC2C[C@@](C)(OC)[C@@H](O)[C@H](C)O2)[C@H](C)[C@@H](O[C@@H]2O[C@H](C)C[C@H](N(C)C)[C@H]2O)C(C)(O)C[C@@H](C)/C(=N\OCCCC2CCCCC2)[C@H](C)[C@@H](O)[C@]1(C)O,-,-,-,Mycobacterium avium complex,MIC,20092 (clarithromycin-resistant),12.5 µg/mL